Results of unrelated studies side by side (data: NIAID ChemDB).

Common to all: enzyme or target tests; agent: HIV-1; target: Integrase; measure: IC50

a–b is a range or a potency band. Blank or dashed fields: not listed here. ICn is the concentration giving n% inhibition. Lines come from different laboratories, so protocols vary.

smiles	changes	method	result
O=C1c2c(O)c(=O)n([C@@H]3CCCC[C@@H]3O)c(=O)n2CCN1Cc1ccc(F)cc1		strand transfer	<10 µM
COC(=O)c1cc(NC(=O)c2nc(NC(=O)c3cc(NC(=O)c4cc(NC(=O)CCCN)cn4C)cn3C)cn2C)cn1C		3′ processing	15 µM
Cc1cn2c(=O)c(O)c(C(=O)NCc3ccc(Cl)c(Cl)c3)nc2s1		strand transfer	0.001–1 µM
O=C1c2c(O)c(=O)n(C(C3CC3)C3CC3)c(=O)n2CCN1Cc1ccc(F)cc1		strand transfer	<10 µM
COC(=O)c1cc(NC(=O)c2nc(NC(=O)c3nc(NC(=O)c4nc(NC(=O)CCCN)cn4C)cn3C)cn2C)cn1C		3′ processing	1.6 µM
CCOC(=O)c1cccc(N=Nc2c(S(=O)(=O)O)cc3cc(NC(=O)Nc4ccc5c(O)c(N=Nc6cccc(C(=O)OCC)c6)c(S(=O)(=O)O)cc5c4)ccc3c2O)c1		3′ processing	2 µM
O=C(/C=C/c1ccc(O)c(O)c1)Oc1ccc2c(N=C=S)cccc2c1		3′ processing	3 µM
O=C1c2c(O)c(=O)ccn2CCN1Cc1ccc(Cl)cc1		ELISA	0.01–0.1 µM
CN(C)C(=O)C(=O)N1CCc2nc(C(=O)NCc3ccc(F)cc3)c(O)c(=O)n2CC1		ELISA	<10 µM
O=C(O)/C=C/c1ccc2c(c1)c(=O)c(/C(O)=C/C(=O)C(=O)O)cn2Cc1ccc(F)cc1		strand transfer	0.03 µM
CCOC(=O)/C(O)=C(\C#N)c1cn(Cc2ccc(F)cc2)c2ccccc12		strand transfer	>100 µM
Cc1cc(C(=O)O)ccc1N=Nc1c(S(=O)(=O)O)cc2cc(NC(=O)Nc3ccc4c(O)c(N=Nc5ccc(C(=O)O)cc5C)c(S(=O)(=O)O)cc4c3)ccc2c1O		3′ processing	0.4 µM
Cc1cn2c(=O)c(O)c(-c3ncc(Cc4ccc(F)cc4)s3)nc2s1	G140S/Q148H	strand transfer	<0.001 µM
O=C1C(=O)N(Cc2ccc(Br)cc2)c2ccccc21		strand transfer	600 µM
COC(=O)C(=O)c1c(O)n(-c2ccccc2)c2ccccc12		strand transfer	273 µM
CN(C)C(=O)C(=O)N(C)C1CN(C2CCCC2)CCn2c1nc(C(=O)NCc1ccc(F)cc1)c(O)c2=O		ELISA	<10 µM
Cn1c(=O)c(O)c2n(c1=O)CCN(Cc1ccc(F)cc1)C2=O		strand transfer	<10 µM
O=C(Nc1ccc2c(O)c(N=Nc3ccc(Br)cc3Br)c(S(=O)(=O)O)cc2c1)Nc1ccc2c(O)c(N=Nc3ccc(Br)cc3Br)c(S(=O)(=O)O)cc2c1		3′ processing	4 µM
O=S(=O)(c1cccc2cnccc12)n1cncn1		strand transfer	>1000 µM
CCn1cc(-c2cc(C(=O)O)no2)c2ccccc21		strand transfer	498 µM
Cc1cn2c(=O)c(O)c(C(=O)NCc3ccc(F)cc3)nc2s1		strand transfer	1–10 µM
CCOC(=O)c1c(C)nc(-c2coc3cc(OCc4ccccc4F)ccc3c2=O)n1O		3′ processing / radiometric	250 µM
O=C(/C=C/c1ccc(O)c(O)c1)OCCc1ccc(NC(=S)SCCO)cc1	C65S	3′ processing	7 µM
O=C1C(=O)N(Cc2ccccc2Cl)c2ccccc21		3′ processing	800 µM
CC(C)C(=O)c1cn2c(c(O)c1=O)C(=O)N(Cc1cccc(Cl)c1)CC2		ELISA	<0.01 µM
CCNC(=O)c1cn2c(c1O)C(=O)N(Cc1ccc(F)cc1)CC2		strand transfer	<0.7 µM
O=C(/C=C/c1ccc(O)c(O)c1)OCCc1ccccc1N=C=S	C65S	3′ processing	7 µM
CCOC(=O)c1nc(NC(=O)c2cc(NC(=O)c3nc(NC(=O)CCCN)cn3C)cn2C)cn1C		3′ processing	300 µM
O=C(NC1CC1)c1cn2c(c1O)C(=O)N(Cc1ccc(F)cc1)CC2		strand transfer	<0.7 µM
Oc1cc(O)cc(Oc2c(O)cc3c(c2O)Oc2cc(Oc4c(O)cc(O)cc4O)c(O)c(O)c2O3)c1		3′ processing	25.2 µM
O=C(/C=C/c1ccc(O)c(O)c1)Oc1cccc2c(N=C=S)cccc12	C56S	3′ processing	20 µM
C[C@H](c1ccccc1)n1c(=O)c2c(=O)c3[nH]cc[nH]c3c(=O)c2c1=O			2.05 µM
COC(=O)/C(O)=C/C(=O)/C=C(\O)c1ccccc1OC		strand transfer	240 µM
CC(C)n1c(=O)c(O)c2n(c1=O)CCN(Cc1ccc(F)c(Cl)c1)C2=O		strand transfer	<10 µM
O=Cc1cc(=O)c(O)c2n1CCN(Cc1ccc(Cl)c(Cl)c1)C2=O		ELISA	0.01–0.1 µM
CC1(C)CC(=O)c2c(nc(-c3coc4cc(OCc5cccc(F)c5)ccc4c3=O)n2O)C1		3′ processing / radiometric	>1000 µM
CN(C)CCCNC(=O)c1ccc2nc(-c3ccc4nc(-c5ccc(OCCOCCOCCOc6ccc(-c7nc8ccc(-c9nc%10ccc(C(=O)NCCCN(C)C)cc%10[nH]9)cc8[nH]7)cc6)cc5)[nH]c4c3)[nH]c2c1		3′ processing	10 µM
Cc1cc(S(=O)(=O)NC2=NC3C=CSC3C(=O)N2N)c(S)cc1Cl		3′ processing	35 µM
COc1cc(O)c2c(c1)C(=O)C(C)=C(c1c(OC)cc3cc4cc(C)oc(=O)c4c(O)c3c1O)C2=O		absorbance	5 µM
NC(=O)c1cc(S(=O)(=O)Nc2nc3ccccc3c(=O)[nH]2)c(SCOc2ccccc2)cc1Cl		3′ processing	>100 µM
CC(C)n1c(=O)c(O)c2n(c1=O)CCN(Cc1ccc(F)cc1Cl)C2=O		strand transfer	<10 µM
O=C(Nc1ccc2c(O)c(N=Nc3cccc(C(=O)O)c3)c(S(=O)(=O)O)cc2c1)C(=O)Nc1ccc2c(O)c(N=Nc3cccc(C(=O)O)c3)c(S(=O)(=O)O)cc2c1		strand transfer	2.5 µM
CC(C)(CN1CCOCC1)Cn1c(=O)c(O)c2n(c1=O)CCN(Cc1ccc(F)cc1)C2=O		strand transfer	<10 µM
COC(=O)C(CCNC(=O)/C=C/c1cc(O)c(O)c(O)c1)NC(=O)/C=C/c1cc(O)c(O)c(O)c1		3′ processing	0.44 µM
C[C@@H](NC(=O)/C=C(\O)C(=O)O)c1ccccc1			24 µM
Cc1cc(CN2CCn3c(nc(C(=O)NCc4ccc(F)cc4)c(O)c3=O)C2(C)C)no1		ELISA	<10 µM
O=C(OC(Cc1ccc(O)c(O)c1)C(=O)O)c1cc(-c2ccc(O)c(O)c2)c2cc(O)c(O)cc2c1		3′ processing	7 µM
Cc1cn2c(=O)c(O)c(-c3ncc(Cc4ccc(Cl)cc4)s3)nc2s1		strand transfer	0.001–1 µM
CC(C)(CO)C(=O)c1cn2ccn(Cc3cccc(Cl)c3)c(=O)c2c(O)c1=O		ELISA	<0.01 µM
CC1(C)CC(=O)c2c(nc(-c3coc4cc(OCc5ccccc5F)ccc4c3=O)n2O)C1		3′ processing / radiometric	>1000 µM
O=C(/C=C/c1ccc(O)c(O)c1)NCC(NC(=O)/C=C/c1ccc(O)c(O)c1)C(=O)O		3′ processing	0.81 µM
CN(C)C(=O)Nc1cn2ccn(Cc3cccc(Cl)c3)c(=O)c2c(O)c1=O		ELISA	<0.01 µM
Nc1ccn([C@@H]2O[C@H](COP(=O)(O)O)[C@@H](OP(=O)(O)OC[C@H]3OC[C@@H](n4cnc5c(N)ncnc54)[C@@H]3O)[C@H]2O)c(=O)n1		strand transfer	>300 µM
CCOC(=O)c1cn2c(c1O)C(=O)N(Cc1ccc(F)c(F)c1)CC2		strand transfer	<1.5 µM
COc1ccc(-n2c(=O)c(O)c3n(c2=O)CCN(Cc2ccc(F)cc2)C3=O)cn1		strand transfer	<10 µM
Cc1cn(Cc2ccc(F)cc2)c(=O)c2c(O)c(=O)c(C(=O)C(C)(C)C)cn12		ELISA	0.01–0.1 µM
O=C(Nc1ccc2c(O)c(N=Nc3ccc(C(=O)O)cc3)c(S(=O)(=O)O)cc2c1)Nc1ccc2c(O)c(N=Nc3ccc(C(=O)O)cc3)c(S(=O)(=O)O)cc2c1		strand transfer	0.5 µM
O=C1c2c(O)c(=O)cc(-c3ccccc3)n2CCN1Cc1ccc(Cl)c(Cl)c1		ELISA	0.01–0.1 µM
O=C(/C=C/c1ccc(O)c(O)c1)NCCC(NC(=O)/C=C/c1ccc(O)c(O)c1)C(=O)O		3′ processing	2.3 µM
O=c1c(-c2nccs2)cn2ccn(CCCc3c(F)cccc3Cl)c(=O)c2c1O		ELISA	<0.01 µM
C[C@H](NC(=O)c1nc(-c2cccs2)[nH]c(=O)c1O)c1ccccc1			5 µM
O=C(NCc1ccc(F)cc1)c1nc2n(c(=O)c1O)CCNC2		ELISA	<10 µM
Cc1cc(S(=O)(=O)Nc2nc(=O)c3ccccc3n2C)c(SCOc2ccccc2)cc1Cl		3′ processing	>100 µM
O=C1c2c(O)c(=O)n(C3CCCCCC3)c(=O)n2CCN1Cc1ccc(F)cc1		strand transfer	<10 µM
CCCCC(C)C1=C(O)C(=O)C2CC(C)CC(C(=O)O)C2C1(C)C(O)CCO		strand transfer	20 µM
O=C(/C=C/c1ccc(O)c(O)c1)OCCc1ccc(N=C=S)cc1	C56S	3′ processing	18 µM
CCOC(=O)c1nc(NC(=O)c2cc(NC(=O)c3cc(NC(=O)c4nc(NC(=O)CCCN)cn4C)cn3C)cn2C)cn1C		3′ processing	33 µM
CNC(=O)c1cn2c(c1O)C(=O)N(Cc1ccc(F)cc1)CC2		strand transfer	<0.7 µM
CCC/C=C/CCCCCCc1cc(O)cc(O)c1C(=O)OC(CCC)CCCCCCCc1cc(O)cc(O)c1		strand transfer	88 µM
Nc1ncnc2c1ncn2[C@@H]1CO[C@H](COP(=O)(O)O)C1		3′ processing	>200 µM

5 of the rows above, restated:

smiles | changes | method | result
CNC(=O)c1cn2c(c1O)C(=O)N(Cc1ccc(F)cc1)CC2 |  | strand transfer | <0.7 µM
CN(C)C(=O)C(=O)N(C)C1CN(C2CCCC2)CCn2c1nc(C(=O)NCc1ccc(F)cc1)c(O)c2=O |  | ELISA | <10 µM
COc1cc(O)c2c(c1)C(=O)C(C)=C(c1c(OC)cc3cc4cc(C)oc(=O)c4c(O)c3c1O)C2=O |  | absorbance | 5 µM
NC(=O)c1cc(S(=O)(=O)Nc2nc3ccccc3c(=O)[nH]2)c(SCOc2ccccc2)cc1Cl |  | 3′ processing | >100 µM
Cc1cc(CN2CCn3c(nc(C(=O)NCc4ccc(F)cc4)c(O)c3=O)C2(C)C)no1 |  | ELISA | <10 µM